Compound potency records, mixed from different reports. Data source: NIAID ChemDB in PubChem.

All rows: growth or infection tests; species: Herpes simplex virus

Blank or dashed fields: not listed here. ECn: concentration that inhibits the pathogen or its effect by n%. Inhibition is in % at the dose shown (toxicity tests: loss of growth or viability). Neighbouring rows are from separate reports.

SMILES,strain,cells,read by,read-out,tested at,value
OC[C@H]1O[C@H](Oc2ccc(Cl)cc2)C[C@@H](O)[C@@H]1O,-,LLC-MK2,plaque count,EC50,-,2000 µM
O=C(Nc1ccc(NC(=S)Nc2cc(C(F)(F)F)cc(C(F)(F)F)c2)cc1)c1csnn1,-,-,-,EC50,-,>20 µM
O=S(=O)([O-])c1cccc(O)c1,-,Human amnion AV3 cells,cytopathic effect,inhibition,5 µg/mL,19%
O[C@@H]1[C@@H](O)[C@H](Oc2ccccc2)O[C@H](CCl)[C@H]1O,-,LLC-MK2,plaque count,EC50,-,1000 µM
COc1cc(OC)c(NC(=S)Nc2ccc(NC(=O)c3ccco3)cc2)cc1Cl,-,-,-,EC50,-,9 µM
O=c1[nH]c(=O)n([C@@H]2O[C@H](CO)[C@@H](O)[C@@H]2O)cc1/C=C/Cl,WT-34,-,-,MIC,-,0.1 µg/mL
OC[C@H]1O[C@H](Oc2ccccc2)C[C@@H](O)[C@@H]1O,-,LLC-MK2,plaque count,EC50,-,2000 µM
O=S(=O)(O)c1cc(O)c2c(O)c(N=Nc3ccccc3)c(S(=O)(=O)O)cc2c1,-,Human amnion AV3 cells,cytopathic effect,inhibition,50 µg/mL,43%
Nc1ccn(C[C@@H](CO)OCP(=O)(O)O)c(=O)n1,Initial clinical isolates,MRC-5,plaque count,EC50,-,0.4 µM
O=C(Nc1ccc2cc(S(=O)(=O)[O-])cc(S(=O)(=O)[O-])c2c1)c1ccccc1,-,Human amnion AV3 cells,cytopathic effect,inhibition,10 µg/mL,33%
COc1cc(OC)c(NC(=S)Nc2ccc(NC(=O)c3csnn3)cc2)cc1Cl,-,-,-,EC50,-,>22 µM
O=[N+]([O-])c1cc([N+](=O)[O-])c2ccc(S(=O)(=O)O)cc2c1O,-,Human amnion AV3 cells,cytopathic effect,inhibition,10 µg/mL,0%
C=Cc1cn([C@@H]2O[C@H](CO)[C@@H](O)[C@@H]2O)c(=O)[nH]c1=O,WT-20,-,-,MIC,-,100 µg/mL
O=C(Nc1ccc(S(=O)(=O)[O-])c2cccc(S(=O)(=O)[O-])c12)c1ccccc1,-,Human amnion AV3 cells,cytopathic effect,inhibition,5 µg/mL,0%
O=c1[nH]c(=O)n([C@@H]2O[C@H](CO)[C@@H](O)[C@@H]2O)cc1/C=C/Br,WT-20,-,-,MIC,-,1000 µg/mL

The first 2 rows once more:

SMILES | strain | cells | read by | read-out | tested at | value
OC[C@H]1O[C@H](Oc2ccc(Cl)cc2)C[C@@H](O)[C@@H]1O | - | LLC-MK2 | plaque count | EC50 | - | 2000 µM
O=C(Nc1ccc(NC(=S)Nc2cc(C(F)(F)F)cc(C(F)(F)F)c2)cc1)c1csnn1 | - | - | - | EC50 | - | >20 µM